# PubChem BioAssay AID1259414, Drosophila RNAi Screening Center – 2018
# Purpose: 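Host factors increasing or decreasing Wolbachia levels in cultured fly cells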 (primary screen)
# Cells: Drosophila JW18 cells infected with Wolbachia
# Reagent: long dsRNA against Drosophila genes, 0.25 µg dsRNA per well of a 384-well plate
# Timing: 5 days
# Treatment: cells persistently infected with Wolbachia before knock-down; no added drug
# Detection: 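Imaged fluorescence in situ signal for Wolbachia 23S rRNA per DAPI-counted host cell, given as a robust z-score within each plate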
# Scale: Wolbachia per cell robust z: higher = more Wolbachia per host cell than the plate typical
# Hit rule: 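Hit when robust z is 1.5 or more, or -1.5 or less, in at least two of three replicates; excludes dsRNAs with several or no targets, genes not expressed in JW18 and well A1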
# The deposit covers about 24,000 reagents; shown is an unselected part of those with a known target gene and a result. Over the whole deposit, about 1,210 (5%) got an active call. 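Inactive calls also include excluded dsRNAs with several or no targets, genes unexpressed in JW18, and well A1, regardless of score.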 Entries without a mark were called inactive. Reagents against one gene are numbered here.
predicted target,dsRNA no.,"Wolbachia per cell robust z, rep 1","Wolbachia per cell robust z, rep 2","Wolbachia per cell robust z, rep 3"
fd3F,1,0.383,0.923,0.433
CG34021,1,-0.323,0.852,-1.08
CG16952,1,0.82,0.0679,0.326
CG7423,1,0.514,0.704,0.873
CG14427,1,0.566,-0.36,0.497
CG14427,2,-2.59,-0.397,-0.934
Fancd2,1,-0.677,-0.684,-0.517
Fancd2,2,-0.042 (active),-2.68,-2.13
Cht5,1,-1.28,-0.809,0.764
Cht5,2,-0.27,0.279,0.148
CG14861,1,-2.02,-2.15,-0.963
CG2225,1,-3.86,0.964,0.152
CG2225,2,0.468,0.608,-0.0121
Ppi1,1,-0.308,0.594,0.304

Called active, among the entries above:
predicted target,dsRNA no.,"Wolbachia per cell robust z, rep 1","Wolbachia per cell robust z, rep 2","Wolbachia per cell robust z, rep 3"
Fancd2,2,-0.042 (active),-2.68,-2.13

Further results follow:
predicted target,dsRNA no.,"Wolbachia per cell robust z, rep 1","Wolbachia per cell robust z, rep 2","Wolbachia per cell robust z, rep 3"
RpS30,1,2.23,1.45,1.26
RpS30,2,3.88 (active),5.02,6.06
CG14369,1,-0.505,-0.429,-0.815
CG14369,2,1.54,0.121,-0.218
CG10154,1,-1.06,0.952,0.979
Prosbeta6,1,0.592,0.45,0.107
CG6978,1,0.00287,-0.878,-0.655
CG14054,1,-0.668,0.632,-0.376
CG31326,1,-0.0763,0.181,1.53
CG31326,2,-2.91,-2.34,-1.85
CG5541,1,1.32,0.459,1.13
CG15278,1,0.148,0.693,1.41
Sry-delta,1,-0.248,0.156,-0.4
CG34430,1,-2.54 (active),-0.677,-5.05
